We go through 1 substance from patent US20100104550A1.

The assay deals with BiP (Immunoglobulin Binding Protein) of Vero (African green monkey kidney) cells (African green monkey (Vero cells)) (UniProt P11021). The assay can be described thus: cell-based or functional assay.

In turn, “Subtilase cytotoxin (SubAB) holotoxin (from UniProt Q6EZC3 24-141) (enzyme)” registered a cytotoxicity endpoint titre on untransfected Vero cells (CD50/µg toxin) of 200000.
